Like-named read-outs stand apart in the source and are kept apart here.
Key:
Test in all cases: cell-based or functional assay
[1] = target: SARS-CoV-2 Delta variant spike protein (SARS-CoV-2)
[2] = target: SARS-CoV-2 Omicron variant B.1.1.529 spike protein (SARS-CoV-2)
[3] = target: SARS-CoV-2 Delta variant spike protein (SARS-CoV-2); remark: listed apart in the source
[4] = target: SARS-CoV-2 Omicron variant B.1.1.529 spike protein (SARS-CoV-2); remark: listed apart in the source
[5] = target: SARS-CoV-2 Omicron variant BA.4.6 spike protein (SARS-CoV-2)
[6] = target: SARS-CoV-2 Omicron variant BF.7 spike protein (SARS-CoV-2)
[7] = target: SARS-CoV-2 Omicron variant BA.4/5 spike protein (SARS-CoV-2)
[8] = target: SARS-CoV-2 Omicron variant BQ.1.1 spike protein (SARS-CoV-2)
[9] = target: SARS-CoV-2 Omicron variant XBB spike protein (SARS-CoV-2)
[10] = target: SARS-CoV-2 Omicron variant BA.2.75.2 spike protein (SARS-CoV-2)
[11] = target: SARS-CoV-2 Omicron variant BQ.1 spike protein (SARS-CoV-2)

B1: MX1042 (bispecific antibody)
chain: DTVMTQSPLSLPVTPGEPASISCRSSQSLLNSNGYNYLDWYVQKPGQSPQLLIYLGSNRASGVPDRFSGSGSGTDFTLKISRVEAEDVGVYYCMQPLQTPLFTFGPGTKVEIKGGSSGEIVLTQSPGTLSLSPGETATLSCRASQSFSSDLAWYQQKPGQAPRLLIYGASSRATGIPDRFSGSGSGTDFTLTISRLEPADFAVYYCQQYGSSPPVTFGGGTKVEIKGGGGSGGSGSGGGGSASGSGEVQLVESGGGLIQPGGSLRLSCAASGVIVSYNYMNWVRQAPGKGLEWVSVIYSGGSTFYADSVRGRFTISRDNSKNTLYLQMNSLRAEDTAVYYCARDLGPAGAFDIWGLGTMVTVSSGGSSGQVTLRESGPALVKPTQTLTLTCTFSGFSLSTRGVCVSWIRQPPGKALEWLAFIDWDDDKYYNTSLKTRLTISKDTSKNQVVLTMTNVHPVDTATYYCARISSHHGSSWCTTFDYWGQGALVTVSAASGGSGDKTHTCPPCPAPELLGGPSVFLFPPKPKDTLMISRTPEVTCVVVDVSHEDPEVKFNWYVDGVEVHNAKTKPREEQYNSYVVSVLTVLHQDWLNGKEYKCKVSNKALPAPIEKTISKAKGQPREPQVYTLPPSRDELTKNQVSLTCLVKGFYPSDIAVEWESNGQPENNYKTTPPVLDSDGSFFKKLTVDKSRWQQGNVFSCSVLHEALHSHYTQKSLSLSPG
[1]
  IC50, pseudovirus neutralization: 41.7 ng/mL
  IC80, pseudovirus neutralization: 61.4 ng/mL
[2]
  IC50, pseudovirus neutralization: 2.56 ng/mL
  IC80, pseudovirus neutralization: 4.34 ng/mL

B2: MX1023 (bispecific antibody)
chain: EIVMTQSPAILSVSPGERATLSCRASQSVAINLAWYQQKPGQAPRLLIYAASSRATGIPGRFSGSGSETNFTLTISSLQSGDFAVYYCQQYITWPPSYTFGQGTKLEIKGGSSGQTVVTQEPSFSVSPGGTVTLTCGLSSGSVSTAYFPSWYQQTPGQAPRTLIYGTNTRSSGVPDRFSGSILGNKAALTITGAQADDESDYYCVLYMGRGIVVFGGGTKLTVLGGGGSGGSGSGGGGSASGSGQVQLVESGGGVVQPGRSLRLSCAASGFTLSSYGMHWVRQAPGKGLEWVAVISYDGSNKYYVDSVKGRFTISRDNSKNTLYLQMNSLRAEDTAVYYCRWAYWELLPDYYYGMDVWGQGTTVTVSSGGSSGEVQLVESGGALIQPGGSLRLSCAASGIIVSANYMSWVRQAPGKGLEWVSVIYSGGSTFYADSVKGRFTISRDNSKNTLYLEMNSLRAEDTAVYYCARDAPILGVSDWGQGTLVTVSSASGGSGDKTHTCPPCPAPELLGGPSVFLFPPKPKDTLMISRTPEVTCVVVDVSHEDPEVKFNWYVDGVEVHNAKTKPREEQYNSYVVSVLTVLHQDWLNGKEYKCKVSNKALPAPIEKTISKAKGQPREPQVYTLPPSRDELTKNQVSLTCLVKGFYPSDIAVEWESNGQPENNYKTTPPVLDSDGSFFKKLTVDKSRWQQGNVFSCSVLHEALHSHYTQKSLSLSPG
[3]
  IC50, pseudovirus neutralization: 88.9 ng/mL
  IC80, pseudovirus neutralization: 205 ng/mL
[4]
  IC50, pseudovirus neutralization: 3.74 ng/mL
  IC80, pseudovirus neutralization: 8.67 ng/mL
[5]
  IC50, pseudovirus neutralization: 23.4 ng/mL
  IC80, pseudovirus neutralization: 77.5 ng/mL
[6]
  IC50, pseudovirus neutralization: 18.7 ng/mL
  IC80, pseudovirus neutralization: 54.5 ng/mL
[7]
  IC50, pseudovirus neutralization: 29.7 ng/mL
  IC80, pseudovirus neutralization: 30.7 ng/mL
[8]
  IC50, pseudovirus neutralization: 28.4 ng/mL
  IC80, pseudovirus neutralization: 96 ng/mL
[9]
  IC50, pseudovirus neutralization: 9.79 ng/mL
  IC80, pseudovirus neutralization: 53.2 ng/mL
[10]
  IC50, pseudovirus neutralization: 11.1 ng/mL
  IC80, pseudovirus neutralization: 29.5 ng/mL
[11]
  IC50, pseudovirus neutralization: 29.7 ng/mL
  IC80, pseudovirus neutralization: 85.2 ng/mL

From patent publication US20240109955A1 (published 2024)
